Molecular target: SARS-CoV-2 PL^Pro (Severe acute respiratory syndrome coronavirus 2, UniProt P0DTD1)
Type: biochemical
Details: pH 7.4

Work on “Zn-(N-hydroxyisoquinoline-1-thione) complex [1f]” yielded an IC50 of 260 ± 100 nM.
